Results deposited as PubChem BioAssay AID1259414 (Drosophila RNAi Screening Center, 2018)
Assay: 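Host factors increasing or decreasing Wolbachia levels in cultured fly cells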 (primary screen). Cell system: Drosophila JW18 cells infected with Wolbachia. Reagent: long dsRNA against Drosophila genes, 0.25 µg dsRNA per well of a 384-well plate. Time to read-out: 5 days. Treatment: cells persistently infected with Wolbachia before knock-down; no added drug. Measurement: 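Imaged fluorescence in situ signal for Wolbachia 23S rRNA per DAPI-counted host cell, given as a robust z-score within each plate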. Direction: Wolbachia per cell robust z: higher = more Wolbachia per host cell than the plate typical. Active means: 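Active if absolute robust z reaches 1.5 in two or more of three replicates, leaving out multi- or no-target dsRNAs, genes unexpressed in JW18 and A1 wells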.
The screen tested about 24,000 reagents; shown is an unselected part of those that have a named target and a result. In the full data, about 1,210 (5%) were called active. 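Inactive calls also include excluded dsRNAs with several or no targets, genes unexpressed in JW18, and well A1, regardless of score.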 Unmarked entries are inactive. Names joined by + are all predicted targets of the reagent.

gene	DRSC id	Wolbachia per cell robust z, rep 1	Wolbachia per cell robust z, rep 2	Wolbachia per cell robust z, rep 3
mrva	DRSC11009	-2.93	0.0131	0.0991
mrva	DRSC21842	-0.425	-0.477	-0.245
mrva	DRSC25508	0.724	-1.14	1.39
CG13148	DRSC06275	-0.16	-3.27	0.0426
Sfp24Bd	DRSC40637	-3.41	-0.356	-1.56
CG34396	DRSC04245	-4.45	-0.159	0.156
CG34396	DRSC04246	-4.72	-0.415	-0.788
CG34396	DRSC29674	-0.983	-1.85	-1.04
Ugt37A3	DRSC15937	0.0853	0.405	0.0204
robl22E	DRSC00289	0.559	0.589	0.0916
CG5828	DRSC02900	0.671	0.938	0.301
CG5828	DRSC24456	0.0822	-0.248	-0.691
CG5828	DRSC41583	0.401	-0.732	1.26
cos	DRSC07598	0.396	0.887	0.379
cos	DRSC28447	-1.04	-0.0118	-0.395
CG4045	DRSC18518	-0.388	0.72	-0.679
CG4382	DRSC02743	-0.734	-1.32	-1.28
CG4382	DRSC29493	-1.17	-0.832	-1.29
Zpr1	DRSC18432	0.673	0.727	-0.202
Vha14-1	DRSC07571	1.62 (active)	1.57	0.439
CG9646	DRSC07342	0.955	0.204	1.31
Myd88	DRSC06815	0.527	-0.778	-0.708
Myd88	DRSC28830	0.87	-0.198	-0.282
Myd88	DRSC39025	1.47	1.03	1.8
Phf7	DRSC23523	0.509	-0.519	0.565
Synj	DRSC04526	-0.173	-7.83	0.133
CG12299	DRSC02158	1.88	-7.18	-0.197
CG12299	DRSC23611	-0.289	-0.153	-0.933
CG12299	DRSC39017	0.39	-0.0673	0.3
Acp76A	DRSC09665	-1.29	-0.508	-1.97
Acp76A	DRSC24824	-0.919	-1.71	-0.176
Acp76A	DRSC38974	0.594	1.24	2.13
kra	DRSC12320	-1.54 (active)	-5.6	-0.712
CG9815	DRSC04567	-0.915	-2.5	-0.64
CG9815	DRSC25175	0.443	-0.656	-0.0379
mtTFB1 + Ccdc56	DRSC10809	-0.527	-0.458	0.212
mtTFB1 + Ccdc56	DRSC28766	0.409	1.35	-0.988
mRpL17	DRSC08350	0.785	1.33	-1.56
LSm1	DRSC04458	-1.45	-0.0123	-0.696
lectin-24Db	DRSC00553	0.496	-0.221	-1.68

Active calls, among the entries above:
gene	DRSC id	Wolbachia per cell robust z, rep 1	Wolbachia per cell robust z, rep 2	Wolbachia per cell robust z, rep 3
Vha14-1	DRSC07571	1.62 (active)	1.57	0.439
kra	DRSC12320	-1.54 (active)	-5.6	-0.712

More results follow.
gene	DRSC id	Wolbachia per cell robust z, rep 1	Wolbachia per cell robust z, rep 2	Wolbachia per cell robust z, rep 3
CG16775	DRSC10225	0.662	0.779	-0.613
mEFTu1	DRSC06959	-1.05	0.496	-0.298
mEFTu1	DRSC29468	0.599	-0.54	1.39
CG32137	DRSC10271	0.113	0.721	-1.21
CG10307	DRSC04057	0.692	-1.82	0.64
CG10307	DRSC26316	-0.408	1.22	-0.17
CG11076	DRSC17197	1.15	0.447	0.978
CG17612	DRSC00505	0.922	0.128	0.00401
CG17612	DRSC28366	1.3	0.765	0.286
ebd1	DRSC08565	0.479	0.277	0.735
ebd1	DRSC29439	-1.56 (active)	-7.44	-1.45
mRpS34	DRSC09918	0.26	0.296	0.531
mRpS34	DRSC29248	0.622	-0.524	-1.03
CG8834	DRSC07283	0.526	0.816	0.998
Smn	DRSC10223	0.374	-0.326	-1.45
GCC88	DRSC14264	0.0918	-6.38	-0.635
GCC88	DRSC29299	-0.601	-0.351	0.939
CG4324	DRSC04462	-5.16	-1.06	-1.47
CG4324	DRSC27530	1.58	0.893	1.06
CG43088	DRSC21407	0.862	0.491	1.35
CG43088	DRSC40545	-3.48	-1.31	-0.562
rdog	DRSC14431	1.23	0.294	-8.42
rdog	DRSC26545	-2.85	-1.17	-0.791
Spn85F + CG5359	DRSC26211	-0.377	-5.4	-0.517
tgo	DRSC17077	-1.15 (active)	-2.26	-4.92
tgo	DRSC29930	0.639	1.14	0.929
CG17375	DRSC02614	-0.849	-0.904	-0.721
CG17375	DRSC29517	0.0891	-5.64	1.3
